Laboratory results reported in article PMC12207908 (mLife, 2025).
Strings that start with PEPTIDE1 are HELM notation: dots part the residues, brackets hold end groups and non-standard residues.

Test: peptide made by a vendor (Fmoc solid-phase peptide synthesis; Fmoc-Gly Wang Resin; TBTU, N-methylmorpholine)
Settings: whole synthesis, RP-HPLC, scale of the general procedure 0.5 g resin

Q: For “PEPTIDE1{G.R.F.K.R.L.R.K.K.L.K.K.L.F.K.K.L.S.P.V.I.P.L.L.H.L.G}$$$$V2.0”, which “final purity (method not given)” value is on record?
A: Its value is “exceeding 95%”.
